Our source for the stoichiometry N values is article PMC3466270, “Stacking Interactions between Carbohydrate and Protein Quantified by Combination of Theoretical and Experimental Methods” (PLoS ONE, 2012).

Assay [1] concerns the target RSL W31A mutant (Ralstonia solanacearum). Description: AUC.
Assay [2] addresses Ralstonia solanacearum lectin (RSL), wild type (Ralstonia solanacearum). Description: AUC.

In general, stoichiometry N refers to the number of molecules, sites or subunits per partner or assembly. As for RSL W31A mutant (natural protein), the stoichiometry N in assay [1] turned out to be 3. “Ralstonia solanacearum lectin (RSL), wild type (from UniProt A0A0S4TLR1 1-91) (natural protein)” registered a stoichiometry N in assay [2] of 3.
